# Source: PubChem BioAssay AID1259414 (Drosophila RNAi Screening Center, 2018)
# Assay: 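Genome-wide screen for host control of endosymbiont load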 (primary screen)
# Cell system: Drosophila JW18 cells infected with Wolbachia
# Knock-down reagent: long dsRNA against Drosophila genes, 0.25 µg dsRNA per well of a 384-well plate
# Time to read-out: 5 days
# Treatment: cells persistently infected with Wolbachia before knock-down; no added drug
# Read-out: 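Automated imaging of bacterial rRNA staining divided by host cell count, reported as plate-normalised robust z-score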
# Scale: Wolbachia per cell robust z: higher = more Wolbachia per host cell than the plate typical
# Active means: 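Hit when robust z is 1.5 or more, or -1.5 or less, in at least two of three replicates; excludes dsRNAs with several or no targets, genes not expressed in JW18 and well A1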
# The screen tested about 24,000 reagents; below is a random part of those with a known target gene and a result. In the full data, about 1,210 (5%) got an active call. 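Inactive calls also include excluded dsRNAs with several or no targets, genes unexpressed in JW18, and well A1, regardless of score.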 A number with no mark means an inactive call. Names joined by + are all predicted targets of the reagent.
"Wolbachia per cell robust z, rep 1","Wolbachia per cell robust z, rep 2","Wolbachia per cell robust z, rep 3",gene,DRSC id
-3.75,-0.8,-5.12,Ir94g,DRSC15231
-0.0523,0.0254,0.894,Ir94g,DRSC27794
0.782,0.97,0.517,CG11737,DRSC14364
-5.49,-0.734,-0.439,CG18585,DRSC02678
-8.72,-0.704,0.327,CG44245 + Gyg,DRSC03850
0.0016,-1.66,-2.23,CG44245 + Gyg,DRSC04556
0.116,-0.42,-3.44,CG44245 + Gyg,DRSC28959
-1.38,-0.579,-0.85,PNPase,DRSC14304
-1.79,-0.492,-1.22,mRpL48,DRSC00506
0.745,-5.72,-1.17,HP1e,DRSC16379
1.1,-1.84,0.657,CG30288,DRSC22005
1.05,0.458,-0.411,CG30288,DRSC29991
-0.0467,-0.874,0.55,Amacr,DRSC03198
2.22 (active),0.943,2.54,CG7369,DRSC23501
-2.01,0.448,-1.33,Ir8a,DRSC17817
-0.517,-0.409,-0.155,Ir8a,DRSC17869
-0.369,-0.838,-0.191,Boh2,DRSC02777
0.813,0.697,0.832,Rab11,DRSC16809
0.161,-0.0393,1.33,Rab11,DRSC23620
0.991,2.28,1.58,Nasp + CG34135 + CG11768,DRSC16397
-6.68,-1.67,-1.98,Nasp + CG34135 + CG11768,DRSC27430
-0.268,0.212,-0.351,CG12118,DRSC17813
0.754,0.517,-4.36,enc,DRSC08716
1.66,-0.154,-0.112,enc,DRSC27545
-0.582,0.000994,-1.19,Ir20a,DRSC20506
-0.735,-0.712,0.554,CG6788,DRSC20007
-0.133,-0.143,-0.197,CG6788,DRSC24906
-2.93,0.162,0.488,CG44005 + CG44004,DRSC36534
-1.51,-0.808,-0.0825,CG14367,DRSC14829
-0.783,-0.731,0.382,CG3407,DRSC00603
0.925,0.00262,-0.0947,CG34227,DRSC06788
-1.21,-1.86,-0.373,CG34227,DRSC07034
-0.657,-0.0245,-1.6,CG7974,DRSC08607
0.111,-1.18,-0.285,CG7974,DRSC26643
1.16,0.307,-0.445,CG9609,DRSC20199
0.931,0.00568,0.384,CG9609,DRSC26952
-1.24 (active),-1.7,-2.13,CG9609,DRSC41262
-0.827,-2.42,0.137,Orct2,DRSC14613
-1.04 (active),-1.54,-1.74,Orct2,DRSC24714
-1.62,-0.818,0.604,Targ3 + park,DRSC11617
-0.518,-1.7,-1.37,CG32820 + CG17450 + CG32819,DRSC21803
-0.113,0.51,0.349,CG32820 + CG17450 + CG32819,DRSC22812
-0.794,-0.462,-0.685,Argk2,DRSC10483
-2.6 (active),0.259,-3.94,Argk2,DRSC23349
-1.81,-0.581,-0.363,Argk2,DRSC28762
2,0.532,0.956,RpS3A,DRSC17168
1.41,-1.86,0.987,prage,DRSC17957
-0.336,-0.435,-0.00232,prage,DRSC18490
-0.642,-0.778,-0.0419,prage,DRSC18497
-0.449,-0.118,-0.82,CG14763,DRSC06497
-0.525,-1.03,-1.2,CG14763,DRSC25479
-3.96,-0.84,-1.61,2mit,DRSC14194
0.00572,0.778,0.313,2mit,DRSC15224
0.804,-2.33,-0.707,Cyp9b1,DRSC07389
1.51,-0.783,0.811,Cyp9b1,DRSC24745
1.18,1.14,0.415,Alg14,DRSC19983
0.638,0.697,-0.587,CG4822,DRSC00669
0.819,0.0351,-3.81,CG8924,DRSC23027
0.715,-2.78,-1.09,ArgRS,DRSC20138
-0.122,-0.815,-0.301,CG5608,DRSC15841
-0.424,-0.344,-0.332,CG33322,DRSC03204
-0.0137 (active),-3.27,-4.7,corto,DRSC22988
0.118,-0.311,-0.26,corto,DRSC25778
-1.02,0.803,-0.596,Gr98d,DRSC14571
-0.544,-3.48,-1.73,Gr98d,DRSC24547
-2.58,0.184,0.0877,opm,DRSC20141
0.282,-0.736,0.0404,opm,DRSC22135
0.948,1.2,2.71,opm,DRSC29575
-0.365,0.962,-0.334,gfzf,DRSC12506
0.237,0.166,0.12,gfzf,DRSC21874
-0.904,-0.69,0.0101,CG32115,DRSC22607
0.767,-0.789,-0.961,Gem2,DRSC09721
-1.03,-0.728,-0.746,CG13171,DRSC06299
-5.92,-2.27,-0.784,CG42371 + CG15386,DRSC00400
-0.448,-7.67,-1.72,lectin-21Ca,DRSC00541
-1.36,-0.426,0.957,TwdlE,DRSC02392
0.393,-0.175,0.497,TwdlE,DRSC24943
-2.67,-1.23,1.07,BoYb,DRSC11637
0.634,0.981,1.06,BoYb,DRSC41513
-0.0253,-2.17,-0.862,Cyp6a23,DRSC07383
-1.07,-1.68,-1.04,Cyp6a23,DRSC29473
0.0173,-1,-0.803,CG12516,DRSC14524
-2.85,0.632,0.362,CG31550,DRSC12197
-0.122,0.157,-1.14,CG31550,DRSC12198
0.124,-5.79,-0.165,CG31550,DRSC29447
-0.464,0.535,-0.656,IFT43,DRSC02892
-0.08,1.27,1.01,CG33483,DRSC14019

Part of the list above, set out differently.
| Wolbachia per cell robust z, rep 1 | Wolbachia per cell robust z, rep 2 | Wolbachia per cell robust z, rep 3 | gene | DRSC id |
| --- | --- | --- | --- | --- |
| 0.237 | 0.166 | 0.12 | gfzf | DRSC21874 |
| -0.904 | -0.69 | 0.0101 | CG32115 | DRSC22607 |
| 0.767 | -0.789 | -0.961 | Gem2 | DRSC09721 |
| -1.03 | -0.728 | -0.746 | CG13171 | DRSC06299 |
| -5.92 | -2.27 | -0.784 | CG42371 + CG15386 | DRSC00400 |
